Reference: paper PMC5374441 (Scientific Reports, 2017)

Chains of the proteins cited; added tags and fusions are not shown. Residues count along the entry.
UniProt P36544, 23-502 limits assumed: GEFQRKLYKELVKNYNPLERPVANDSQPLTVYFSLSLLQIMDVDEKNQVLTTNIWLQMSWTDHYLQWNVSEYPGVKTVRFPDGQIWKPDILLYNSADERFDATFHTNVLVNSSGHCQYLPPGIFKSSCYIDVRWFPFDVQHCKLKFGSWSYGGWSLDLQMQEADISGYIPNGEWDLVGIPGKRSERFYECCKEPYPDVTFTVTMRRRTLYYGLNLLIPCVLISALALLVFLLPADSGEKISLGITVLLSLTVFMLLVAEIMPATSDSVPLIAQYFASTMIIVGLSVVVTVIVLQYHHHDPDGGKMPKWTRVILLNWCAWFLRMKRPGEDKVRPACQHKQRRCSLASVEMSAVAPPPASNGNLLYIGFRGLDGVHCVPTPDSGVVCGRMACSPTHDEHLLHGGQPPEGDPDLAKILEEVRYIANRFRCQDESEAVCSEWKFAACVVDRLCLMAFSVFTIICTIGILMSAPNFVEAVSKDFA
UniProt P30926, 22-498 limits assumed: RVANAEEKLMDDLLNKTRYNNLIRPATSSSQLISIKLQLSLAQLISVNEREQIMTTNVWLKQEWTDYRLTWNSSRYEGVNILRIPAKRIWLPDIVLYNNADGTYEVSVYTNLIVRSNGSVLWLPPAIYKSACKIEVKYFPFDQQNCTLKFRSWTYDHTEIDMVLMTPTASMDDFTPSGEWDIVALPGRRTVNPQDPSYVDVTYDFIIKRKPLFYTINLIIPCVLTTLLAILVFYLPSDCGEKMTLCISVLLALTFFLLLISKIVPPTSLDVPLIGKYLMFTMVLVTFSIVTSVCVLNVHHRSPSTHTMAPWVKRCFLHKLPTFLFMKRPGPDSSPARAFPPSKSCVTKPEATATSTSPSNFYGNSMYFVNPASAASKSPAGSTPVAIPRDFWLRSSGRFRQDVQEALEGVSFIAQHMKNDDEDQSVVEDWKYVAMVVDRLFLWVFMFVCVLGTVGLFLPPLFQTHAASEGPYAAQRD
UniProt P32297, 32-505 limits assumed: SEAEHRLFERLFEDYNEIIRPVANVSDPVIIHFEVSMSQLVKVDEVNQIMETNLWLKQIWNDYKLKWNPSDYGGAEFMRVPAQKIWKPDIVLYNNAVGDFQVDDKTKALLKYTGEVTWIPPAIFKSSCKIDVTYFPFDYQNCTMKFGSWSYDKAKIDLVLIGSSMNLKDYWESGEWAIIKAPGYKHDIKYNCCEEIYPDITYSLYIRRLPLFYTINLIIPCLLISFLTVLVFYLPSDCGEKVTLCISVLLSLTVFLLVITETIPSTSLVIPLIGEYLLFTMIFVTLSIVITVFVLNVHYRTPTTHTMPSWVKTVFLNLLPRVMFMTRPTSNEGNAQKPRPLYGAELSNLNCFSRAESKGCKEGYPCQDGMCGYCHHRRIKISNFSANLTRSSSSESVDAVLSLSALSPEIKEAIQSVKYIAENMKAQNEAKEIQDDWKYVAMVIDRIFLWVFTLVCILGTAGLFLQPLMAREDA

Key:
[1] = molecular target: human α7 nAChR (Homo sapiens, UniProt P36544); assay: FLIPR calcium assay, choline-activated α7 nAChR in SH-SY5Y cells; assay type: cell-based
[2] = molecular target: human α3β4 nAChR (Homo sapiens, UniProt P30926+P32297); assay: FLIPR calcium assay, nicotine-activated α3β4 nAChR in SH-SY5Y cells; assay type: cell-based; conditions: for selectivity for α3β4 over α7 nAChR: ratio of potencies at α7 and α3β4 in SH-SY5Y cells

`CC[C@H](C)[C@@H]1NC(=O)[C@H](CC(N)=O)NC(=O)[C@@H]2CCCN2C(=O)[C@H](CC(N)=O)NC(=O)[C@H](CC(N)=O)NC(=O)[C@H](C(C)C)NC(=O)[C@H](CCCNC(=N)N)NC(=O)[C@@H]2CSSC[C@H](NC(=O)CNC(=O)[C@@H](N)CO)C(=O)N[C@@H](CSSC[C@@H](C(N)=O)NC1=O)C(=O)N[C@@H](CO)C(=O)N[C@@H](Cc1c[nH]cn1)C(=O)N1CCC[C@H]1C(=O)N[C@@H](C)C(=O)N2` was tested, and the IC50 [1] was 40 nM, the IC50 [2] was > 10000 nM and the “activity at α3β4 (in words)” value ([2]; SH-SY5Y cells, FLIPR calcium) was “inactive”.

In the case of `CC[C@H](C)[C@@H]1NC(=O)[C@H](CC(N)=O)NC(=O)[C@@H]2CCCN2C(=O)[C@H](CC(N)=O)NC(=O)[C@H](CC(C)C)NC(=O)[C@H](C(C)C)NC(=O)[C@H](CCCNC(=N)N)NC(=O)[C@@H]2CSSC[C@H](NC(=O)CNC(=O)[C@@H](N)CO)C(=O)N[C@@H](CSSC[C@@H](C(N)=O)NC1=O)C(=O)N[C@@H](CO)C(=O)N[C@@H](CC(N)=O)C(=O)N1CCC[C@H]1C(=O)N[C@@H](C)C(=O)N2` [N12L-LsIA], the IC50 [1] is reported as 25700 nM, the IC50 [2] is reported as 630 nM and the “selectivity for α3β4 over α7 nAChR” value ([2]; FLIPR calcium) is reported as 40 fold.

For `CC[C@H](C)[C@@H]1NC(=O)[C@H](CC(N)=O)NC(=O)[C@@H]2CCCN2C(=O)[C@H](CC(N)=O)NC(=O)[C@H](CC(N)=O)NC(=O)[C@H](C(C)C)NC(=O)[C@H](CC(=O)O)NC(=O)[C@@H]2CSSC[C@H](NC(=O)CNC(=O)[C@@H](N)CO)C(=O)N[C@@H](CSSC[C@@H](C(N)=O)NC1=O)C(=O)N[C@@H](CO)C(=O)N[C@@H](CC(N)=O)C(=O)N1CCC[C@H]1C(=O)N[C@@H](C)C(=O)N2` [R10D-LsIA], the IC50 [1] was > 10000 nM, the “activity at α7 (in words)” value ([1]; SH-SY5Y cells, FLIPR calcium) was “inactive” and the IC50 [2] was > 10000 nM.

With `CC[C@H](C)[C@@H]1NC(=O)[C@H](CC(N)=O)NC(=O)[C@@H]2CCCN2C(=O)[C@H](CC(N)=O)NC(=O)[C@H](CCC(N)=O)NC(=O)[C@H](C(C)C)NC(=O)[C@H](CCCNC(=N)N)NC(=O)[C@@H]2CSSC[C@H](NC(=O)CNC(=O)[C@@H](N)CO)C(=O)N[C@@H](CSSC[C@@H](C(N)=O)NC1=O)C(=O)N[C@@H](CO)C(=O)N[C@@H](CC(N)=O)C(=O)N1CCC[C@H]1C(=O)N[C@@H](C)C(=O)N2` [N12Q-LsIA] the IC50 [1] was 980 nM and the IC50 [2] was > 10000 nM.

For `CC[C@H](C)[C@@H]1NC(=O)[C@H](CC(N)=O)NC(=O)[C@@H]2CCCN2C(=O)[C@H](CC(N)=O)NC(=O)[C@H](CC(C)C)NC(=O)[C@H](C(C)C)NC(=O)[C@H](Cc2ccccc2)NC(=O)[C@@H]2CSSC[C@H](NC(=O)CNC(=O)[C@@H](N)CO)C(=O)N[C@@H](CSSC[C@@H](C(N)=O)NC1=O)C(=O)N[C@@H](CO)C(=O)N[C@@H](CC(N)=O)C(=O)N1CCC[C@H]1C(=O)N[C@@H](C)C(=O)N2`, the IC50 [1] was > 100000 nM, the IC50 [2] was 410 nM and the “selectivity for α3β4 over α7 nAChR” value ([2]; FLIPR calcium) was > 250 fold.

For `CC[C@H](C)[C@@H]1NC(=O)[C@H](CC(N)=O)NC(=O)[C@@H]2CCCN2C(=O)[C@H](CC(N)=O)NC(=O)[C@H](CC(N)=O)NC(=O)[C@H](C(C)C)NC(=O)[C@H](Cc2ccccc2)NC(=O)[C@@H]2CSSC[C@H](NC(=O)CNC(=O)[C@@H](N)CO)C(=O)N[C@@H](CSSC[C@@H](C(N)=O)NC1=O)C(=O)N[C@@H](CO)C(=O)N[C@@H](CC(N)=O)C(=O)N1CCC[C@H]1C(=O)N[C@@H](C)C(=O)N2` [R10F-LsIA], the IC50 [2] was 440 nM.

With `CC[C@H](C)[C@@H]1NC(=O)[C@H](CC(N)=O)NC(=O)[C@@H]2CCCN2C(=O)[C@H](CC(N)=O)NC(=O)[C@H](CC(=O)O)NC(=O)[C@H](C(C)C)NC(=O)[C@H](CCCNC(=N)N)NC(=O)[C@@H]2CSSC[C@H](NC(=O)CNC(=O)[C@@H](N)CO)C(=O)N[C@@H](CSSC[C@@H](C(N)=O)NC1=O)C(=O)N[C@@H](CO)C(=O)N[C@@H](CC(N)=O)C(=O)N1CCC[C@H]1C(=O)N[C@@H](C)C(=O)N2` [N12D-LsIA] the IC50 [1] was > 10000 nM and the IC50 [2] was > 10000 nM.

With `CC[C@H](C)[C@@H]1NC(=O)[C@H](CC(N)=O)NC(=O)[C@@H]2CCCN2C(=O)[C@H](CC(N)=O)NC(=O)[C@H](CC(N)=O)NC(=O)[C@H](C(C)C)NC(=O)[C@H](CCSC)NC(=O)[C@@H]2CSSC[C@H](NC(=O)CNC(=O)[C@@H](N)CO)C(=O)N[C@@H](CSSC[C@@H](C(N)=O)NC1=O)C(=O)N[C@@H](CO)C(=O)N[C@@H](CC(N)=O)C(=O)N1CCC[C@H]1C(=O)N[C@@H](C)C(=O)N2` [R10M-LsIA] the IC50 [1] was 2420 nM, the IC50 [2] was 440 nM and the “selectivity for α3β4 over α7 nAChR” value ([2]; FLIPR calcium) was 5 fold.
